Pooled drug test results. Numbers come from NIAID ChemDB, via PubChem.

All rows: growth or infection tests; organism: Mycobacterium avium; read-out: MIC

Blank or dashed fields: not listed here.

smiles,strain,setting,result
CC(C)N=c1cc2n(-c3ccc(Cl)cc3)c3ccccc3nc-2cc1Nc1ccc(Cl)cc1,11279,,1 µg/mL
Fc1ccc(C(Cn2ccnc2)NCc2ccc(-c3ccccc3)cc2)cc1,103317,,10.7 µM
Cc1ccc(-n2c(=O)oc3ccc(C)cc3c2=O)cc1,CNCTC MY330/88,,62.5 µM
CN1CCN(c2ccc(NCc3ccc(Cl)cc3)cc2)CC1,103317,,97.8 µM
Cc1ccc(CS(=O)(=O)c2ncn[nH]2)cc1,MY330/88,,>500 µM
Cc1ccc2oc(=O)n(-c3ccc(C#N)cc3)c(=O)c2c1,CNCTC MY330/88,,32 µM
Cc1ccc2oc(=S)n(-c3ccc(C(F)(F)F)cc3)c(=S)c2c1,MY330/88,21 d,32 µM
Brc1ccc(CSc2ncn[nH]2)cc1,MY330/88,,500 µM
Fc1ccc2oc(=S)n(-c3cccc(Cl)c3)c(=S)c2c1,MY330/88,14 d,8 µM
Clc1ccc(/C(Cn2ccnc2)=N\OCc2ccc(-c3ccccc3)cc2)cc1,103317,,19.9 µM
COc1ccc(-n2c(=O)oc3ccc([N+](=O)[O-])cc3c2=O)cc1,CNCTC MY330/88,,>1000 µM
Cn1cnnc1SCc1cccc(Br)c1,MY330/88,,1000 µM
CC(C)(C)c1ccc(COC(Cn2ccnc2)c2ccccc2)cc1,103317,,2.99 µM
Cc1ccc2oc(=O)n(-c3ccccc3)c(=S)c2c1,MY330/88,14 d,4 µM
Cc1ccc2oc(=O)n(-c3ccc(Br)cc3)c(=O)c2c1,CNCTC MY330/88,,16 µM
O=c1oc2ccc(F)cc2c(=S)n1-c1ccc(Cl)cc1,MY330/88,14 d,4 µM
COc1ccc2oc(=O)n(-c3ccc(Cl)cc3)c(=O)c2c1,CNCTC MY330/88,,62.5 µM
Cc1ccc2oc(=S)n(-c3cccc(F)c3)c(=S)c2c1,MY330/88,14 d,8 µM
O=c1oc2ccc(Cl)cc2c(=O)n1-c1cccc(F)c1,CNCTC MY330/88,,16 µM
Clc1ccccc1CSc1ncn[nH]1,MY330/88,,500 µM
CCCOc1ccc(NC(=O)OCCN2CCCC2)cc1,MY330/88,,250 µM
O=c1oc2ccc(F)cc2c(=S)n1-c1ccc(F)cc1,MY330/88,14 d,8 µM
Cc1cccc(C(N)=Nc2nc(-c3ccccn3)cc3ccccc23)c1,SK-18,,1 µg/mL
Clc1ccc(C(Cn2ccnc2)OC/C=C/c2ccccc2)c(Cl)c1,103317,,21.5 µM
CN(C)c1ccc(-n2c(=O)oc3cc(Cl)ccc3c2=O)cc1,CNCTC MY330/88,,31 µM
CCCOc1ccc(NC(=O)OCCN2CCCCCC2)cc1,MY330/88,,250 µM
O=c1oc2ccc(F)cc2c(=S)n1-c1cccc(Cl)c1,MY330/88,21 d,8 µM
CCCCOc1ccccc1NC(=O)OCCN(C)C,MY330/88,,250 µM
CN1CCN(c2ccc(NCc3ccc(-c4ccccc4)cc3)cc2)CC1,103317,,10.8 µM
CCCCCCOc1cccc(NC(=O)OCCN2CCOCC2)c1,MY330/88,,62.5 µM
Clc1ccc(CNc2ccccc2-n2ccnc2)cc1,103317,,26.9 µM

2 of the rows above, restated:

smiles | strain | setting | result
Brc1ccc(CSc2ncn[nH]2)cc1 | MY330/88 |  | 500 µM
O=c1oc2ccc(F)cc2c(=S)n1-c1cccc(Cl)c1 | MY330/88 | 21 d | 8 µM

Neighbouring rows are from separate reports.